Measurements reported in PubChem BioAssay AID1259414 (Drosophila RNAi Screening Center, 2018)
The deposit covers about 24,000 reagents; shown is a random part of those that have a named target and a result. Over the whole deposit, about 1,210 (5%) are marked active. 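Inactive calls also include excluded dsRNAs with several or no targets, genes unexpressed in JW18, and well A1, regardless of score.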 A plus sign joins genes that one reagent is predicted to hit.

- Purpose: 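Host factors increasing or decreasing Wolbachia levels in cultured fly cells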 (primary screen)
- Cells: Drosophila JW18 cells infected with Wolbachia
- Knock-down reagent: long dsRNA against Drosophila genes, 0.25 µg dsRNA per well of a 384-well plate
- Timing: 5 days
- Challenge: cells persistently infected with Wolbachia before knock-down; no added drug
- Detection: 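Automated imaging of bacterial rRNA staining divided by host cell count, reported as plate-normalised robust z-score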
- Reading the numbers: Wolbachia per cell robust z: higher = more Wolbachia per host cell than the plate typical
- Call rule: 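Active if absolute robust z reaches 1.5 in two or more of three replicates, leaving out multi- or no-target dsRNAs, genes unexpressed in JW18 and A1 wells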

gene | amplicon | Wolbachia per cell robust z, rep 1 | Wolbachia per cell robust z, rep 2 | Wolbachia per cell robust z, rep 3 | outcome
Glut3 (Glucose transporter type 3) | DRSC16681 | 0.854 | -0.118 | 0.361 | inactive
Glut3 (Glucose transporter type 3) | DRSC26249 | 3.13 | 1.05 | -0.355 | inactive
CadN2 (Cadherin-N2) | DRSC03062 | -1.38 | 0.209 | 0.0774 | inactive
CadN2 (Cadherin-N2) | DRSC03063 | -0.363 | -0.671 | -1.63 | inactive
CadN2 (Cadherin-N2) | DRSC03064 | -0.196 | -0.329 | 0.0379 | inactive
aft (adrift) | DRSC07576 | 0.947 | -0.881 | 0.00316 | inactive
Dyro (Dpt-YFP repressor by overexpression) | DRSC10598 | -2.29 | 0.29 | -5.87 | active
Dyro (Dpt-YFP repressor by overexpression) | DRSC25276 | -0.146 | -0.0219 | 1.23 | inactive
CG9123 | DRSC20156 | 0.14 | 0.831 | -0.712 | inactive
ATPsynD (ATP synthase, subunit D) | DRSC14093 | 1.01 | 1.07 | 0.343 | inactive
ATPsynD (ATP synthase, subunit D) | DRSC26487 | -0.526 | 2.1 | 2.34 | active
AhcyL2 (Adenosylhomocysteinase like 2) | DRSC14107 | -0.368 | 1.53 | 1.32 | inactive
scpr-B (SCP-containing protein B) | DRSC15200 | 0.216 | -0.109 | -2.78 | inactive
dhd (deadhead) | DRSC18761 | -0.405 | -0.779 | -0.0823 | inactive
dhd (deadhead) | DRSC29590 | 0.612 | -1.47 | 0.59 | inactive
trbd (trabid) | DRSC16494 | 0.0727 | 0.731 | 1.14 | inactive
trbd (trabid) | DRSC27999 | 1.61 | 1.87 | 0.686 | active
CG7335 | DRSC10816 | -0.408 | 0.396 | -1.84 | inactive
CG7335 | DRSC26314 | -0.347 | -1.22 | 0.198 | inactive
CG7335 | DRSC41608 | -0.258 | 0.196 | -0.599 | inactive
Spt3 | DRSC15465 | -0.323 | 0.0239 | 0.133 | inactive
Spt3 | DRSC25502 | 1.36 | 0.382 | 2.09 | inactive
CG12107 | DRSC06102 | -0.46 | -2.43 | 0.162 | inactive
Muc26B (Mucin 26B) | DRSC02322 | -0.0542 | 0.00158 | -0.37 | inactive
Muc26B (Mucin 26B) | DRSC28140 | 0.142 | -0.631 | -0.628 | inactive
Muc26B (Mucin 26B) | DRSC39082 | -3.22 | 0.221 | -0.214 | inactive
CG9776 | DRSC12127 | 0.0709 | -0.0696 | -1.07 | inactive
dgt1 (dim gamma-tubulin 1) | DRSC15301 | 0.141 | -0.111 | 0.482 | inactive
Sas-6 (Spindle assembly abnormal 6) | DRSC15061 | -0.065 | -4.32 | 0.177 | inactive
Gabat (gamma-aminobutyric acid transaminase) | DRSC10846 | 1.14 | 0.936 | 0.226 | inactive
TRAM | DRSC18178 | -0.633 | -7.95 | 0.263 | inactive
TRAM | DRSC18651 | 0.0758 | -0.339 | -0.868 | inactive
CG6470 | DRSC19994 | 0.755 | 0.313 | 1.65 | inactive
CG6470 | DRSC27690 | -0.553 | -1.26 | -12.2 | inactive
Sod3 (Superoxide dismutase 3) | DRSC07324 | 0.141 | -0.396 | 0.538 | inactive
Sod3 (Superoxide dismutase 3) | DRSC26222 | 0.172 | 0.0484 | 0.304 | inactive
CG32847 | DRSC22901 | -0.933 | -1.89 | 0.123 | inactive
CG7271 + term | DRSC30034 | -2.92 | -0.891 | 0.338 | inactive
CG14187 | DRSC10186 | 0.00788 | -1.66 | -1.2 | inactive
CG14187 | DRSC26776 | 0.158 | -0.193 | -0.377 | inactive
Gfat1 (Glutamine:fructose-6-phosphate aminotransferase 1) | DRSC21219 | 1.18 | 0.633 | -0.351 | inactive
Gfat1 (Glutamine:fructose-6-phosphate aminotransferase 1) | DRSC29612 | -1.39 | 0.692 | -0.444 | inactive
CG8888 | DRSC07294 | -2.01 | -7.69 | -2.04 | inactive
CG8888 | DRSC07295 | -0.181 | 0.543 | -0.206 | inactive
CDase (Ceramidase) | DRSC14932 | -0.906 | -0.77 | -0.549 | inactive
Tret1-1 (Trehalose transporter 1-1) | DRSC07046 | -1.1 | -2.65 | -1.05 | inactive
Tret1-1 (Trehalose transporter 1-1) | DRSC07048 | 0.273 | 0.512 | 0.235 | inactive
Tret1-1 (Trehalose transporter 1-1) | DRSC25701 | 1.05 | 0.721 | -0.653 | inactive
CG13989 | DRSC02321 | 0.401 | -1.94 | 0.674 | inactive
cta + CR40005 | DRSC03763 | -0.243 | 0.349 | -1.13 | inactive
Acp98AB (Accessory gland protein 98AB) | DRSC21837 | -1.76 | -2.42 | -0.552 | inactive
Mst36Fa (Male-specific transcript 36Fa) | DRSC21564 | 0.671 | 0.644 | 0.373 | inactive
Mst36Fa (Male-specific transcript 36Fa) | DRSC26339 | 0.567 | -0.198 | -0.255 | inactive
tud (tudor) | DRSC04719 | -0.239 | -0.517 | 0.555 | inactive
CG5641 | DRSC15852 | -0.546 | -3.31 | 1.8 | inactive
CG31050 | DRSC13883 | -1.46 | -2.81 | 1.59 | inactive
CG32756 | DRSC23271 | 0.421 | -0.634 | 0.387 | inactive
CG32756 | DRSC25978 | -1.51 | -0.496 | -1.53 | active
Cdk7 (Cyclin-dependent kinase 7) | DRSC18451 | -0.644 | -0.721 | 1.14 | inactive
Cdk7 (Cyclin-dependent kinase 7) | DRSC23327 | -0.0719 | -8.13 | -0.931 | inactive
CG13538 | DRSC04180 | 0.255 | 0.525 | 0.325 | inactive
CG7166 | DRSC11809 | 0.139 | -0.0736 | -7.71 | inactive
Doa (Darkener of apricot) | DRSC13892 | -0.315 | -0.258 | -0.438 | inactive
Doa (Darkener of apricot) | DRSC13893 | -1.04 | -0.231 | -0.748 | inactive
Doa (Darkener of apricot) | DRSC13896 | -0.734 | -0.834 | -0.458 | inactive
Doa (Darkener of apricot) | DRSC13897 | -1.86 | -3.02 | -2.06 | active
Doa (Darkener of apricot) | DRSC16650 | -8.53 | 0.388 | 0.695 | inactive
Doa (Darkener of apricot) | DRSC26631 | -0.256 | 0.305 | 0.178 | inactive
Doa (Darkener of apricot) | DRSC40713 | 0.938 | 1.2 | 0.0268 | inactive
